# According to PMC9954444, “SERPIN-Derived Small Peptide (SP16) as a Potential Therapeutic Agent against HIV-Induced Inflammatory Molecules and Viral Replication in Cells of the Central Nervous System” (Cells, 2023):
# Columns and labels:
# human primary astrocytes = assay: Western blotting of LRP-1, NF-κB and Akt in astrocytes; assay type: cell-based; conditions: 12 h
# [1] = cited from earlier work
# Source text: For the study described here, we used SP16, a peptide derived from the serine proteinase inhibitor (serpin), A1AT, found in abundance in human plasma. A1AT drugs have both pro- and anti-inflammatory structural regions, and when used to treat inflammation, the pro-inflammatory regions dampen the anti-inflammatory effect.
# microglia [2] = assay: Cell viability, MTT and trypan blue, microglia; assay type: cell-based, human; conditions: range of SP16 concentrations, 24 and 96 h
# microglia [3] = assay: ELISA of inflammatory molecules in microglia supernatant; assay type: cell-based, human; conditions: 12 h
# endothelial cells [4] = assay: Cell viability, MTT and trypan blue, endothelial cells; assay type: cell-based, human; conditions: range of SP16 concentrations, 24 and 96 h
# Procedure: (§1) Cell proliferation and survival were measured using an MTT (3-[4,5-dimethylthiazol-2-yl]-2,5 diphenyl tetrazolium bromide) cell growth assay kit from MilliporeSigma (Temecula, CA, USA). Human brain cells at a cell density of 3 × 10^4 cells/well, were exposed to SP16 at different concentrations. After 24 and 96 h, 10 μL of 12 mM MTT solution was added to each well. After 4 h of incubation, DMSO was added to dissolve the formazan crystals. The absorbance in each well was read at 570 nm with a reference wavelength of 630 nm on a Synergy HTX microplate reader from BioTek (Winooski, VT, USA).
# (§2) Cell viability was measured using trypan blue exclusion assay, which allows for the identification of live (unstained) and dead (blue) cells. Human brain cells were grown to confluency in a 24-well plate and exposed to SP16 at increasing concentrations. After 24 and 96 h, cells were harvested using enzyme-free cell dissociation buffer followed by centrifugation. Pellets were re-suspended in their specific media, and 10 μL of suspensions were diluted in an equal volume of 0.40% trypan blue dye from Bio-Rad (catalog #145-0013, Hercules, CA, USA). 10 µL was loaded on a counting chamber, and a TC20 automated cell counter determined the percentage of live cells from Bio-Rad (Hercules, CA, USA). Cell viability was expressed as the percentage of live cells out of total cells.
# endothelial cells [5] = assay: Western blotting of LRP-1, NF-κB and Akt in endothelial cells; assay type: cell-based, human; conditions: 12 h
# Procedure: Proteins in brain cell lysates and postmortem brain homogenates were separated by SDS-PAGE, transferred to PVDF membranes, and subsequently incubated with primary antibodies from Santa Cruz Biotechnology (Dallas, TX, USA), including NF-κB at 1:200 dilution (catalog # sc-8008) and β-actin at 1:200 dilution (catalog # sc-47778). Antibodies from Abcam (Boston, MA, USA), including Akt at dilution 1:500 (catalog # ab-38449) and LRP-1 at dilution 1:50,000 (catalog # ab-92544). After primary antibodies, membranes were incubated with horseradish peroxidase-conjugated secondary antibodies followed by exposure to SuperSignal West Femto Substrate from Thermo Scientific (Waltham, MA, USA). Membranes were visualized using a ChemiDoc imaging system from Bio-Rad (Hercules, CA, USA) and protein expression was calculated using Image J software from NIH (Bethesda, MD, USA).
# Human primary astrocytes and endothelial cells seeded in 24-well plates at 80% confluency were transfected overnight with small interfering (si) RNA against LRP-1, using Lipofectamine 2000 (Invitrogen, Carlsbad, CA, USA) in Opti-MEM media according to the manufacturer’s protocol. After overnight incubation, Opti-MEM media was replaced with corresponding culture media. After 48 and 96 h post transfection, cells were treated with SP16 (25 and 100 μg/mL) for 12 and 24 h.
# astrocytes = assay: Cell viability, MTT and trypan blue, astrocytes; assay type: cell-based, human; conditions: range of SP16 concentrations, 24 and 96 h
# Procedure: as §1, §2
# EcoHIV = assay: p24 gag ELISA in EcoHIV-infected mouse glia; assay type: cell-based, EcoHIV-NDK; conditions: 250 μg/mL SP16, 12 h post-treatment (Figure 9 legend: 24 h)
# [6] = microglia without the BBB insert, SP16 1 and 100 µg/mL
structure (smiles),measurement,setting,value
CCCC[C@H](NC(=O)[C@H](CC(C)C)NC(=O)[C@H](Cc1ccccc1)NC(=O)[C@@H](NC(=O)[C@H](Cc1ccccc1)NC(=O)[C@@H]1CCCN1C(=O)[C@H](CCCCN)NC(=O)[C@H](CC(N)=O)NC(=O)[C@H](Cc1ccccc1)NC(=O)[C@H](CCCCN)NC(=O)[C@@H](NC(C)=O)C(C)C)C(C)C)C(=O)N[C@H](C(=O)N[C@@H](CCC(=O)O)C(=O)N[C@@H](CCC(N)=O)C(=O)N[C@@H](CC(N)=O)C(=O)N[C@H](C(=O)N[C@@H](CCCCN)C(N)=O)[C@@H](C)O)[C@@H](C)CC [SP16],expression level of NF-κB,"human primary astrocytes; astrocytes, 25 μg/mL SP16",no significant changes
same,expression levels of NF-κB,"human primary astrocytes; astrocytes, SP16 100 and 250 μg/mL (100 μg/mL), β-actin also reduced at 250 μg/mL",significantly reduced
same,expression levels of Akt,"human primary astrocytes; infected and non-infected astrocytes, 25 μg/mL SP16",upregulated
same,cardiac liability,[1]; in vivo,no cardiac liability
same,drug-specific toxicity,[1]; in vivo,no drug-specific toxicity
same,humoral immune response,[1]; in vivo,no humoral immune response
same,off-target effects,[1]; in vivo,no off-target effects
same,safety in a phase 1 trial,[1]; in vivo,no safety concerns
same,potency relative to A1AT,"[1]; statement in Discussion, no test described, ref not given",300 times
same,cell viability,microglia [2],did not decrease cell viability
same,IL-8,"microglia [3]; microglia with the BBB inserts, SP16 added to luminal surface",unaffected
same,secretion of IL-6,microglia [3]; [6],decreased
same,secretion of IL-8,microglia [3]; [6],decreased
same,decrease in secretion of MCP-1,"microglia [3]; non-infected and HIV-infected microglia, plates with and without BBB, SP16 1 and 100 µg/mL, mean of 3 independent experiments",more than 50%
same,cell viability,endothelial cells [4],did not decrease cell viability
same,LRP-1 expression levels,"endothelial cells [5]; HIV-infected and non-infected endothelial cells, increased concentration of SP16",reduced LRP-1 expression levels
same,expression level of NF-κB,"endothelial cells [5]; endothelial cells, 25 μg/mL SP16",no significant changes
same,expression levels of NF-κB,"endothelial cells [5]; endothelial cells, SP16 100 and 250 μg/mL, β-actin also reduced at 250 μg/mL",significantly reduced
same,expression levels of Akt,"endothelial cells [5]; infected and non-infected endothelial cells, 25 μg/mL SP16",upregulated
same,cell viability,astrocytes,did not decrease cell viability
same,"reduction of viral replication, p24 gag protein",EcoHIV,30%
